Compound potency records, mixed from different reports. Data source: NIAID ChemDB in PubChem.

Common to all: cytotoxicity tests; cells: HEP-2; endpoint: CC50

CCn is the concentration with n% toxicity to the cells. Rows are shuffled and stem from different studies.

smiles	value
CSc1nsc(-c2cccc3ccccc23)c1C#N	4 µM
N#Cc1cc(C#N)c2[nH]c3ccccc3n2c1=O	50 µg/mL
COc1ccc(-c2snc(SC)c2C#N)cc1	10 µM
CSc1nsc(-c2c(Cl)cccc2Cl)c1C#N	5 µM
CC(C)CCC(O)C12C[C@@H]3[C@H](C)CC[C@H]3C3(C=O)CC1C=C(C(C)C)[C@@]23C(=O)O	2.5 µg/mL
O=C(Cc1cnc2[nH]c3ccccc3n2c1=O)c1ccccc1	8 µg/mL
CSc1nsc(-c2ccc(OC(C)(C)C)cc2)c1C#N	>50 µM
CSc1nsc(-c2ccc(Cl)cc2)c1C#N	5 µM
O=C(/C=C/c1ccc(O)c(O)c1)O[C@H]1[C@H](O)C[C@](O)(C(=O)O)C[C@H]1OC(=O)/C=C/c1ccc(O)c(O)c1	>100 µg/mL
CSc1nsc(-c2ccccc2)c1C#N	20 µM
CCOC(=O)c1cc(C(=O)O)c(=O)n2c1[nH]c1ccccc12	40 µg/mL
O=C(/C=C/c1ccc(O)c(O)c1)O[C@@H]1CC(O)(C(=O)O)C[C@@H](OC(=O)/C=C/c2ccc(O)c(O)c2)C1O	>394.4 µg/mL
CSc1nsc(-c2cccc(Cl)c2)c1C#N	10 µM
N#Cc1cc(C(=O)O)c(=O)n2c1[nH]c1ccccc12	200 µg/mL
CC(C)C1=CC2CC3(C=O)[C@@H]4CC[C@@H](C)[C@H]4CC2(C(=O)C#CC(C)(C)C)[C@]13C(=O)O	1.4 µg/mL
COc1ccc(-c2snc(SC)c2C#N)cc1	10 µM
Nc1ccn(C[C@@H](CO)OCP(=O)(O)O)c(=O)n1	184.8 µg/mL
CC(C)C1=CC2CC3(C=O)[C@@H]4CC[C@@H](C)[C@H]4CC2(C(O)CCC2CCCCC2)C13C(=O)O	1.8 µg/mL
CSc1nsc(-c2ccccc2)c1C#N	20 µM
Cc1cc(=O)c2c(O)c(C)c(O[C@H]3O[C@H](CO)[C@@H](O)[C@H](O)[C@H]3O)c(C)c2o1	82.5 µg/mL

Again, the opening 2 rows:

smiles | value
CSc1nsc(-c2cccc3ccccc23)c1C#N | 4 µM
N#Cc1cc(C#N)c2[nH]c3ccccc3n2c1=O | 50 µg/mL